This data set concerns cytokeratin 8. Nature of the data set: Affinity chromatography of A549 lysate on P1-15, cytokeratin 8. It counts as binding, human. To be noted: biotinylated P1-15 on avidin agarose, native A549 cell lysate, 16 h at 4 °C, LC-MS/MS. How it is done: The C-terminal sequence of P1 (P1-15) was synthesised with an N-terminal biotin tag by Chempeptide Limited (China). Affinity chromatography was performed similar to the section above. In brief, 1 mg of the peptide was added to Avidin Agarose beads for 16 h at 4 °C. The beads were washed four times (5 ml per wash) with PBS before being incubated with native A549 cell lysates (harvested in 1% w/v C7BzO in PBS) for 16 h at 4 °C. Non-binding proteins were washed from the column with four washes (5 ml per wash) of PBS and protein complexes with an affinity to the peptide were eluted from the column with 7 M urea, 2 M thiourea, 40 mM Tris-HCl, and 1% (w/v) C7BzO (4 times of 2 ml). Eluents were concentrated with a Macrosep® 3 kDa cutoff centrifugal device (Pall), precipitated with acetone, and separated by 1D-SDS PAGE. The whole lane was divided into sections, in-gel digested with trypsin, and analysed by LC-MS/MS as described above.

These results are taken from paper PMC7156367, “Cell surface processing of the P1 adhesin of Mycoplasma pneumoniae identifies novel domains that bind host molecules” (Scientific Reports, 2020).

Regarding “PGAPKPPVQPPKKPA [P1-15, C-terminal 15 amino acids of P1, synthesised chemically, N-terminal biotin tag]”, where the note is “first of two values (slice 1 and 2)”, the “Mascot score, cytokeratin 8 (first value)” value is given as 2737. The “Mascot score, cytokeratin 8 (second value)” value (second of two values (slice 1 and 2)) worked out at 1486.
